Measured values from several laboratories, pooled; numbers as filed in NIAID ChemDB.

Common to all: whole-cell or culture tests; organism: Rhinovirus; read-out: inhibition

Blank or dashed fields: not listed here. Percent inhibition refers to the dose given; in toxicity tests it is the harm to the cells. Two numbers with a dash give a range or band. "inactive" is the filed call at that dose; no cut-off is given. Lines come from different laboratories, so protocols vary.

CN(C)c1nc(C(F)(F)F)nc2c1ncn2Cc1ccc(Cl)cc1Cl ; dose: 8 µM ; method: plaque count ; cell line: M-HELA ; strain: Serotype 14 ; result: 35%
COc1cc(C(=O)Oc2c(-c3ccc(Cl)cc3)oc3ccccc3c2=O)cc(OC)c1O ; dose: 1.56 µM ; method: plaque count ; cell line: HeLa ; strain: Serotype 14 ; result: 27%
CCOc1cc(O)c(C(=O)/C=C/c2ccc(OC)cc2)c(OC)c1 ; dose: 0.022 µg/mL ; strain: 100 serotypes ; result: 18%
Fc1cccc(Cn2cnc3c(Nc4cccc(F)c4)nc(C(F)(F)F)nc32)c1 ; dose: 5 µM ; method: plaque count ; cell line: M-HELA ; strain: Serotype 86 ; result: 38%
CN(C)c1nc(C(F)(F)F)nc2c1ncn2Cc1ccc([N+](=O)[O-])cc1 ; dose: 8 µM ; method: plaque count ; cell line: M-HELA ; strain: Serotype 3 ; result: 43%
COc1cc(C(=O)Oc2c(-c3ccc(Cl)c(Cl)c3)oc3ccccc3c2=O)ccc1O ; dose: 6.25 µM ; method: plaque count ; cell line: HeLa ; strain: Serotype 14 ; result: 36%
CN(C)c1ccc(Cn2cnc3c(N(C)C)nc(C(F)(F)F)nc32)cc1 ; dose: 8 µM ; method: plaque count ; cell line: M-HELA ; strain: Serotype 30 ; result: 35%
COc1cc(/C=C/C(=O)Oc2c(-c3ccc(Cl)c(Cl)c3)oc3ccccc3c2=O)ccc1OC(C)=O ; dose: 0.39 µM ; method: plaque count ; cell line: HeLa ; strain: Serotype 14 ; result: 3%
Nc1cc(S(=O)(=O)[O-])cc2cc(S(=O)(=O)[O-])ccc12 ; dose: 50 µg/mL ; method: cytopathic effect ; cell line: Human embryonic lung cells ; result: 55%
COc1ccc(N2CCN(c3cccc(C)c3)CC2)nn1 ; dose: 3 µg/mL ; strain: 100 serotypes ; result: 53%
CN(C)c1nc(C(F)(F)F)nc2c1ncn2Cc1ccc(C(F)(F)F)cc1 ; dose: 8 µM ; method: plaque count ; cell line: M-HELA ; strain: Serotype 30 ; result: 40%
O=S(=O)(O)c1cc(O)c2c(O)cc(S(=O)(=O)O)cc2c1 ; dose: 5 µg/mL ; method: cytopathic effect ; cell line: Human amnion AV3 cells ; result: 0%
Cc1ccccc1Cn1cnc2c(N(C)C)nc(C(F)(F)F)nc21 ; dose: 8 µM ; method: plaque count ; cell line: M-HELA ; strain: Serotype 2 ; result: 31%
CC(=O)Oc1ccc(/C=C/C(=O)Oc2c(-c3ccc(Cl)c(Cl)c3)oc3ccccc3c2=O)cc1OC(C)=O ; dose: 0.86 µM ; method: plaque count ; cell line: HeLa ; strain: Serotype 14 ; result: inactive
CCCCCCCCCCCCCCOc1ccc(C(C)=O)o1 ; dose: 1.75 µg/mL ; strain: 17 serotypes ; result: 71%
O=S(=O)([O-])c1ccc(NS(=O)(=O)c2ccccc2)c2c(S(=O)(=O)[O-])cccc12 ; dose: 10 µg/mL ; method: cytopathic effect ; cell line: Human amnion AV3 cells ; result: 43%
CS(=O)(=O)c1ccc2c(c1)CCC(c1ccc(Cl)c(Cl)c1)O2 ; dose: 0.031 µg/mL ; strain: 17 serotypes ; result: 18%
COc1cc(C(=O)Oc2c(-c3ccc(Cl)cc3)oc3ccccc3c2=O)ccc1OC(C)=O ; dose: 14.22 µM ; method: plaque count ; cell line: HeLa ; strain: Serotype 1B ; result: inactive
O=S(=O)([O-])c1cc(NS(=O)(=O)c2ccccc2)c2c(S(=O)(=O)[O-])cc(S(=O)(=O)[O-])cc2c1 ; dose: 10 µg/mL ; method: cytopathic effect ; cell line: Human amnion AV3 cells ; result: 0%
CN(C)c1nc(C(F)(F)F)nc2c1ncn2Cc1ccccc1 ; dose: 8 µM ; method: plaque count ; cell line: M-HELA ; strain: Serotype 19 ; result: 32%
NCCS(=O)(=O)O ; dose: 10 µg/mL ; method: cytopathic effect ; cell line: Human embryonic lung cells ; result: 10%
CC(=O)Oc1ccc(/C=C/C(=O)Oc2c(-c3ccc(Cl)cc3)oc3ccccc3c2=O)cc1OC(C)=O ; dose: 0.39 µM ; method: plaque count ; cell line: HeLa ; strain: Serotype 1B ; result: 17%
CN(c1cccc(F)c1)c1nc(C(F)(F)F)nc2c1ncn2Cc1cccc(F)c1 ; dose: 10 µM ; method: plaque count ; cell line: M-HELA ; strain: Serotype 5 ; result: 18%
O=S(=O)(O)c1ccc2cc(O)c(S(=O)(=O)O)cc2c1 ; dose: 10 µg/mL ; method: cytopathic effect ; cell line: Human embryonic lung cells ; result: 10%
COc1cc(C(=O)Oc2c(-c3ccc(Cl)cc3)oc3ccccc3c2=O)cc(OC)c1OC(C)=O ; dose: 1.02 µM ; method: plaque count ; cell line: HeLa ; strain: Serotype 1B ; result: inactive
O=C(O)Cc1csc(/N=C2\SC[C@@H]3Cc4ccccc4CN23)n1 ; dose: 7 µg/mL ; method: cytopathic effect ; cell line: MRC-5 ; strain: Serotype 1A ; result: 80–100%
O=C(Oc1c(-c2ccc(Cl)c(Cl)c2)oc2ccccc2c1=O)c1cc(O)c(O)c(O)c1 ; dose: 25 µM ; method: plaque count ; cell line: HeLa ; strain: Serotype 14 ; result: 38%
Cc1ccc(Cn2cnc3c(N(C)C)nc(C(F)(F)F)nc32)cc1 ; dose: 8 µM ; method: plaque count ; cell line: M-HELA ; strain: TYPE 21 ; result: 40%
COc1ccc(Cn2cnc3c(N(C)C)nc(C(F)(F)F)nc32)cc1C ; dose: 8 µM ; method: plaque count ; cell line: M-HELA ; strain: Serotype 29 ; result: 27%
O=C1C(c2[nH]c3ccc(S(=O)(=O)O)cc3c2O)=Nc2ccc(S(=O)(=O)O)cc21 ; dose: 5 µg/mL ; method: cytopathic effect ; cell line: Human amnion AV3 cells ; result: 0%
Cc1cccc(N2CCN(c3ccc(Br)nn3)CC2)c1 ; dose: 9 µg/mL ; strain: 17 serotypes ; result: 71%
Cc1cc(Cn2cnc3c(N(C)C)nc(C(F)(F)F)nc32)ccc1Cl ; dose: 8 µM ; method: plaque count ; cell line: M-HELA ; strain: Serotype 3 ; result: 44%
N#Cc1cc([N+](=O)[O-])ccc1Oc1ccc(Cl)c(Cl)c1 ; dose: 0.5 µg/mL ; method: plaque count ; cell line: VERO ; strain: HANK ; result: 84.2%
O=S(=O)([O-])c1ccc2c(O)cc(S(=O)(=O)[O-])cc2c1 ; dose: 10 µg/mL ; method: cytopathic effect ; cell line: Human amnion AV3 cells ; result: 14%
CN(C)c1nc(C(F)(F)F)nc2c1ncn2Cc1ccccc1Cl ; dose: 8 µM ; method: plaque count ; cell line: M-HELA ; strain: Serotype 19 ; result: 27%

The first 3 rows once more:

compound | dose | method | cell line | strain | result
CN(C)c1nc(C(F)(F)F)nc2c1ncn2Cc1ccc(Cl)cc1Cl | 8 µM | plaque count | M-HELA | Serotype 14 | 35%
COc1cc(C(=O)Oc2c(-c3ccc(Cl)cc3)oc3ccccc3c2=O)cc(OC)c1O | 1.56 µM | plaque count | HeLa | Serotype 14 | 27%
CCOc1cc(O)c(C(=O)/C=C/c2ccc(OC)cc2)c(OC)c1 | 0.022 µg/mL | - | - | 100 serotypes | 18%